Results as given in ChEMBL document CHEMBL1149138 (J Med Chem, 2004).

By UniProt entry, the sequences of proteins in these tests, tags left out.
UniProt P03468, whole entry, looked up: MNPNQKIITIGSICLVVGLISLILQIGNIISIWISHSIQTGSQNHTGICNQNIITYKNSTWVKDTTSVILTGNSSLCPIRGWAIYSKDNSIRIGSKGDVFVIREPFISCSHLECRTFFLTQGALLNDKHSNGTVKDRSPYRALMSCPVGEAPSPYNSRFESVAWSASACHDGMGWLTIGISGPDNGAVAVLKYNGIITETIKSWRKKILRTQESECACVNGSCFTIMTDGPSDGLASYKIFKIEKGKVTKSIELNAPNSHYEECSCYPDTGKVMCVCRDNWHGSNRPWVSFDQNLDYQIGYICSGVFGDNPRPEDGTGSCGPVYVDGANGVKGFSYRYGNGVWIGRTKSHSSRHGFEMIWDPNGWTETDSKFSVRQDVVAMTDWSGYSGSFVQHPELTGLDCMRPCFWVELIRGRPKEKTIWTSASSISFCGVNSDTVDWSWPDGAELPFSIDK

Biological target: Neuraminidase (Influenza A virus (A/Puerto Rico/8/1934(H1N1)), UniProt P03468)
Assay: In vitro inhibitory activity of compound against influenza neuraminidase A

| Compound | IC50 [nM] |
| --- | --- |
| CC(=O)NC(C(=O)N1CCCCC1)[C@H]1CC(C(=O)O)C[C@@H]1N=C(N)N (stereo partly drawn) | 150 |
| CC(=O)NC(C(=O)N(C)C(C)C)[C@H]1CC(C(=O)O)C[C@@H]1N=C(N)N (stereo partly drawn) | 3210 |
| CCCN(CC1CC1)C(=O)C(NC(C)=O)[C@H]1CC(C(=O)O)C[C@@H]1N=C(N)N (stereo partly drawn) | 200 |
| CCCCN(C)C(=O)C(NC(C)=O)[C@H]1CC(C(=O)O)C[C@@H]1N=C(N)N (stereo partly drawn) | 2400 |
| CC(=O)NC(C(=O)N1CCCCC1C)[C@H]1CC(C(=O)O)C[C@@H]1N=C(N)N (stereo partly drawn) | 240 |
| CC(=O)NC(C(=O)N1CCCC1)[C@H]1CC(C(=O)O)C[C@@H]1N=C(N)N (stereo partly drawn) | 470 |
| CC(=O)NC(C(=O)N1CC(C)CC(C)C1)[C@H]1CC(C(=O)O)C[C@@H]1N=C(N)N (stereo partly drawn) | 3500 |
| CCCCNC(=O)C(NC(C)=O)[C@H]1CC(C(=O)O)C[C@@H]1N=C(N)N (stereo partly drawn) | 9900 |
| CCN(CCO)C(=O)C(NC(C)=O)[C@H]1CC(C(=O)O)C[C@@H]1N=C(N)N (stereo partly drawn) | 720 |
| CCNC(=O)C(NC(C)=O)[C@H]1CC(C(=O)O)C[C@@H]1N=C(N)N (stereo partly drawn) | 330 |
| CCC(CC)NC(=O)C(NC(C)=O)[C@H]1CC(C(=O)O)C[C@@H]1N=C(N)N (stereo partly drawn) | 80 |
| CCCC1CCCCN1C(=O)C(NC(C)=O)[C@H]1CC(C(=O)O)C[C@@H]1N=C(N)N (stereo partly drawn) | 150 |
| CC(=O)NC(C(=O)N1CCSCC1)[C@H]1CC(C(=O)O)C[C@@H]1N=C(N)N (stereo partly drawn) | 230 |
| CC(=O)NC(C(=O)NCCc1ccccc1)[C@H]1CC(C(=O)O)C[C@@H]1N=C(N)N (stereo partly drawn) | 6400 |
| CC(=O)NC(C(=O)NC(C)CCc1ccccc1)[C@H]1CC(C(=O)O)C[C@@H]1N=C(N)N (stereo partly drawn) | 230 |
| CCC(C)NC(=O)C(NC(C)=O)[C@H]1CC(C(=O)O)C[C@@H]1N=C(N)N (stereo partly drawn) | 410 |
| CC(=O)NC(C(=O)N1CCCCCC1)[C@H]1CC(C(=O)O)C[C@@H]1N=C(N)N (stereo partly drawn) | 990 |
| CC(=O)NC(C(=O)NC(C)CC(C)C)[C@H]1CC(C(=O)O)C[C@@H]1N=C(N)N (stereo partly drawn) | 8400 |
| C=CCN(C)C(=O)C(NC(C)=O)[C@H]1CC(C(=O)O)C[C@@H]1N=C(N)N (stereo partly drawn) | 650 |

| Compound | IC50 [nM] |
| --- | --- |
| C=CCNC(=O)C(NC(C)=O)[C@H]1CC(C(=O)O)C[C@@H]1N=C(N)N (stereo partly drawn) | 720 |
| CCCN(CC)C(=O)C(NC(C)=O)[C@H]1CC(C(=O)O)C[C@@H]1N=C(N)N (stereo partly drawn) | 130 |
| CCC1CCCCN1C(=O)C(NC(C)=O)[C@H]1CC(C(=O)O)C[C@@H]1N=C(N)N (stereo partly drawn) | 180 |
| CC(=O)NC(C(=O)N(C)CCc1ccccc1)[C@H]1CC(C(=O)O)C[C@@H]1N=C(N)N (stereo partly drawn) | 8000 |
| CCCN(C)C(=O)C(NC(C)=O)[C@H]1CC(C(=O)O)C[C@@H]1N=C(N)N (stereo partly drawn) | 940 |
| CCN(Cc1ccccc1)C(=O)C(NC(C)=O)[C@H]1CC(C(=O)O)C[C@@H]1N=C(N)N (stereo partly drawn) | 670 |
| CCCCC(C)NC(=O)C(NC(C)=O)[C@H]1CC(C(=O)O)C[C@@H]1N=C(N)N (stereo partly drawn) | 8700 |
| CCCCN(CC)C(=O)C(NC(C)=O)[C@H]1CC(C(=O)O)C[C@@H]1N=C(N)N (stereo partly drawn) | 430 |
| CCCC(C)NC(=O)C(NC(C)=O)[C@H]1CC(C(=O)O)C[C@@H]1N=C(N)N (stereo partly drawn) | 3200 |
| CC(=O)NC(C(=O)N1CCC(C)CC1)[C@H]1CC(C(=O)O)C[C@@H]1N=C(N)N (stereo partly drawn) | 8200 |
| COCC(C)NC(=O)C(NC(C)=O)[C@H]1CC(C(=O)O)C[C@@H]1N=C(N)N (stereo partly drawn) | 4400 |
| CCCCC(CC)NC(=O)C(NC(C)=O)[C@H]1CC(C(=O)O)C[C@@H]1N=C(N)N (stereo partly drawn) | 1800 |
| CCCCCCN(C)C(=O)C(NC(C)=O)[C@H]1CC(C(=O)O)C[C@@H]1N=C(N)N (stereo partly drawn) | 12400 |
| CC(=O)NC(C(=O)NC(C)C)[C@H]1CC(C(=O)O)C[C@@H]1N=C(N)N (stereo partly drawn) | 1340 |
| CC(=O)NC(C(=O)N1CCC1)[C@H]1CC(C(=O)O)C[C@@H]1N=C(N)N (stereo partly drawn) | 920 |
| CCN(CC)C(=O)C(NC(C)=O)[C@H]1CC(C(=O)O)C[C@@H]1N=C(N)N (stereo partly drawn) | 15 |
| CCCN(CCC)C(=O)C(NC(C)=O)[C@H]1CC(C(=O)O)C[C@@H]1N=C(N)N (stereo partly drawn) | 60 |
| CCC(COC)NC(=O)C(NC(C)=O)[C@H]1CC(C(=O)O)C[C@@H]1N=C(N)N (stereo partly drawn) | 2200 |
| CC(=O)NC(C(=O)N1CCOCC1)[C@H]1CC(C(=O)O)C[C@@H]1N=C(N)N (stereo partly drawn) | 40 |
